Data on 10 compounds can be found in article PMC6036174 (Frontiers in Microbiology, 2018).

Data set [1] deals with M. tuberculosis H37Rv (ATCC 27294). In words: resazurin microtiter assay, MIC against M. tuberculosis H37Rv. In kind it is cell-based, Mycobacterium tuberculosis. The following applies: for SI A549: CC50 A549 / MIC M. tuberculosis H37Rv; for SI VERO: CC50 VERO / MIC M. tuberculosis H37Rv. (In general: The colour change of resazurin is a common sign of viable cells or microbes.)

The next data set has as its system M. tuberculosis CDC1551. In words: broth tube MIC (visible pellet) against M. tuberculosis CDC1551. As to conditions: for SI A549: CC50 A549 / MIC M. tuberculosis CDC1551; for SI VERO: CC50 VERO / MIC M. tuberculosis CDC1551. The class given is cell-based, Mycobacterium tuberculosis.
The next data set relates to M. tuberculosis H37Rv. As to conditions: ref Oliveira et al., [2014]; cited from earlier work.

Turning to `O.O.O=C([O-])c1ccccc1C(=O)[O-].[Mn+2].c1cnc2c(c1)ccc1cccnc12` [compound 5, [Mn(ph)(phen)(H2O)2]], the “SI A549” value in data set [1] was 411; in the data set with M. tuberculosis CDC1551 it was 1234. Also, the figures for the “SI VERO” value (in data set [1]; in the data set with M. tuberculosis CDC1551) were 27 and more than 82, respectively.

For the compound `CNC(=S)N/N=C(\C)c1ccccn1.CNC(=S)N/N=C(\C)c1ccccn1.[Mn+2]` [[Mn(atc-Me)2]], the “SI (measured against VERO cells)” value in the data set with M. tuberculosis H37Rv is given as 5.3.

Take `O.O.O.O.O.O=C([O-])c1ccc(C(=O)[O-])cc1.[Mn+2].c1cnc2c(c1)ccc1cccnc12.c1cnc2c(c1)ccc1cccnc12` [compound 9, [Mn(tereph)(phen)2]·5H2O]: in data set [1], the “SI A549” value is given as 74 and the “SI VERO” value was 14. Besides, in the data set with M. tuberculosis CDC1551, the “SI A549” value is given as 663 and the “SI VERO” value stood at 123.

Take `O.O.O.O.O=C([O-])c1cccc(C(=O)[O-])c1.O=C([O-])c1cccc(C(=O)[O-])c1.[Mn+2].[Mn+2].c1cnc2c(c1)ccc1cccnc12.c1cnc2c(c1)ccc1cccnc12.c1cnc2c(c1)ccc1cccnc12` [compound 7, [Mn2(isoph)2(phen)3]·4H2O]: in data set [1], the “SI A549” value came out at 164.

On to `O.O.O.O.O.O=C([O-])c1ccccc1C(=O)[O-].[Mn+2].c1cnc2c(c1)ccc1cccnc12.c1cnc2c(c1)ccc1cccnc12` [compound 6, [Mn(ph)(phen)2(H2O)]·4H2O], for which, in data set [1], the “SI A549” value amounted to 183 and the “SI VERO” value came to 8. Besides, in the data set on M. tuberculosis CDC1551, the “SI A549” value came out at 682 and the “SI VERO” value is given as 31.

Turning to `O.O.O.O.O.O.O.O.O.O.O.O.O.O.O.O.O=C([O-])c1cccc(C(=O)[O-])c1.O=C([O-])c1cccc(C(=O)[O-])c1.[Mn+2].[Mn+2].c1cnc2c(c1)ccc1cccnc12.c1cnc2c(c1)ccc1cccnc12.c1cnc2c(c1)ccc1cccnc12.c1cnc2c(c1)ccc1cccnc12.c1cnc2c(c1)ccc1cccnc12` [compound 8, {[Mn(phen)2(H2O)2]}2(isoph)2(phen)·12H2O], in data set [1], the “SI A549” value worked out at 84 and the “SI VERO” value turned out to be 16. Moreover, in the data set on M. tuberculosis CDC1551, the “SI A549” value came out at 1325 and the “SI VERO” value is on record as more than 240.

As for `NNC(=O)c1ccncc1` [INH, Isoniazid, reference compound], in data set [1], the “SI A549” value was 5284 and the “SI VERO” value amounted to 5513. For the same compound, in the data set with M. tuberculosis CDC1551, the “SI A549” value stood at 5284 and the “SI VERO” value was 5513.

With `O.O.[Cl-].[Cl-].[Mn+2]` [MnCl2·2H2O, reference compound], in data set [1], the “SI A549” value is on record as less than 6.2 and the “SI VERO” value is less than 3.7.

In the case of `c1cnc2c(c1)ccc1cccnc12` [phen, 1,10-phenanthroline, reference compound], in data set [1], the “SI A549” value was found to be 0.39 and the “SI VERO” value stood at 1. Also, in the data set on M. tuberculosis CDC1551, the “SI A549” value stood at 1.43 and the “SI VERO” value is 3.

With `C/C(=N\NC(=S)Nc1ccccc1)c1ccccn1.C/C(=N\NC(=S)Nc1ccccc1)c1ccccn1.[Mn+2]` [[Mn(atc-Ph)2]], in the data set with M. tuberculosis H37Rv, the “SI (measured against VERO cells)” value is more than 641.
